Compound potency records, mixed from different reports. Data source: NIAID ChemDB in PubChem.

Common to all: cytotoxicity tests; cells: MT-4; read-out: CC50

Neighbouring rows are from separate reports.

| compound | method | result |
|---|---|---|
| Cc1csc(NC(=S)NCCc2ccccc2)n1 |  | >360 µM |
| CNc1nc(Nc2ccc(C#N)cc2)nc(Oc2ccc3ccccc3c2)c1C(C)C | MTT | 25.15 µM |
| S=C(Nc1ccc(I)cc1)NC1CCN(Cc2ccccc2)CC1 | MTT | 7 µM |
| COc1c(C(=O)/C=C(/C)Nc2ccc([N+](=O)[O-])cc2)c(O)c(S(=O)(=O)OC2CCCCC2)c2occc12 | MTT | 490 µM |
| S=C(NCc1ccco1)Nc1ccccc1Br | MTT | 100 µM |
| Cc1cc(C)cc(S(=O)(=O)c2c(C(=O)NCCn3ccc(=O)[nH]c3=O)[nH]c3ccc(Cl)cc23)c1 | MTT | 40.15 µM |
| C[C@H](NP(=O)(OC[C@@H]1C=C[C@H](n2ccc3c(N)ncnc32)C1)Oc1ccccc1)C(=O)OCc1ccccc1 | trypan blue | 78 µM |
| O=C1N/C(=N\N=C\c2ccc(Cl)c([N+](=O)[O-])c2)S/C1=C/c1ccc(-c2ccc(Cl)c(C(=O)O)c2)o1 | propidium iodide | 40 µM |
| N#Cc1ccc(Nc2nc(Oc3c(Br)cc(Br)cc3Br)ncc2[N+](=O)[O-])cc1 | MTT | 20 µM |
| CC(=O)Oc1ccc(/C=C/C(=O)Nc2ccc(S(=O)(=O)Nc3ccc(F)c(F)c3)cc2)cc1OC(C)=O |  | 20 µM |
| COc1c(C(=O)/C=C(/C)Nc2ccccc2)c(O)c(S(=O)(=O)OC2CCCCC2)c2occc12 | MTT | 490 µM |
| Fc1cccc(-c2nnc3sc(CC45CC6CC(CC(C6)C4)C5)nn23)c1 | MTT | >125 µg/mL |
| CCCCCCCCC(=O)OCOc1c2n(cc(C(=O)NCc3ccc(F)cc3F)c1=O)[C@@H]1CN(C2=O)[C@@H](C)CC[C@]12CC(C)=NO2 | luminescence | 50 µM |
| COc1cccc(-c2nc(-c3ccc(S(=O)(=O)N(CC(C)C)C[C@@H](O)[C@H](Cc4ccccc4)NC(=O)O[C@H]4CO[C@H]5OCC[C@H]54)cc3)co2)c1 | MTT | >32.4 µM |
| S=C(NCCc1ccco1)Nc1nccs1 |  | 89 µM |
| N#Cc1cnn2c1nnc1cc([N+](=O)[O-])ccc12 |  | 1.5 µM |
| Cc1cc(-c2nc(-c3ccc(S(=O)(=O)N(CC(C)C)C[C@@H](O)[C@H](Cc4ccccc4)NC(=O)O[C@H]4CO[C@H]5OCC[C@H]54)cc3)co2)no1 | MTT | >32.4 µM |
| N#Cc1ccc(Nc2nccc(Oc3ccc4ccccc4c3)n2)cc1 | MTT | 369 µM |
| CCOC(=O)c1cnn2c1nnc1cc([N+](=O)[O-])ccc12 |  | 12.7 µM |
| O=C(O)CCN1C(=O)/C(=C\c2ccc(-c3cccc([N+](=O)[O-])c3)o2)SC1=S | propidium iodide | 36 µM |
| CCCCCCCCCCCC(=O)OCOc1c2n(cc(C(=O)NCc3ccc(F)cc3F)c1=O)[C@@H]1CN(C2=O)[C@@H](C)CC[C@]12CC(OC)=NO2 | luminescence | 50 µM |
| COC(=O)[C@H](Cc1ccccc1)NP(=O)(OC[C@@H]1C=C[C@H](n2ccc3c(N)ncnc32)C1)Oc1ccccc1 | trypan blue | 42 µM |
| COc1c(C(=O)/C=C(/C)Nc2ccccc2)c(O)c(S(=O)(=O)Oc2ccc([N+](=O)[O-])cc2)c2occc12 | MTT | 410 µM |
| S=C(NCCc1ccccc1)Nc1ccn[nH]1 |  | 122 µM |
| Cc1cc(C=O)cc(C)c1Oc1ncc(N)c(Nc2ccc(C#N)cc2)n1 | MTT | ≥34 µM |
| O=C(/C=C/c1ccc(O)c(O)c1)Nc1ccc(S(=O)(=O)Nc2ccc(F)c(F)c2)cc1 |  | 22 µM |
| COc1c(-c2cc(C)n(C)n2)c(O)c(S(=O)(=O)OC2CCCCC2)c2occc12 | MTT | 220 µM |
| C=CCNc1c(N=Nc2ccc(Cl)cc2)c(N)nc(=O)n1C | MTT | 14.23 µM |
| N#Cc1ccc(Nc2nc(Oc3c(Br)cc(Br)cc3Br)ncc2NC(=O)C(F)(F)F)cc1 | MTT | 17 µM |
| Cc1cc(C)cc(S(=O)(=O)c2c(C(=O)N[C@@H]3CCN(CC(N)=O)C3)[nH]c3ccc(Cl)cc23)c1 | MTT | 31.02 µM |
| N#Cc1ccc(Nc2nccc(Oc3cc4ccc(Br)cc4cc3Br)n2)cc1 | MTT | >50.39 µM |
| CCS(=O)(=O)NC(=O)c1[nH]c2ccc(Cl)cc2c1S(=O)(=O)c1cc(C)cc(C)c1 | MTT | 147 µM |
| Cc1ccccc1-c1nnc2sc(CC34CC5CC(CC(C5)C3)C4)nn12 | MTT | ≥11.5 µg/mL |
| Fc1ccc(NC(=S)NCc2ccco2)cc1Cl | MTT | 35.8 µM |
| Nc1ccc2cc(S(=O)(=O)[O-])cc(O)c2c1N=Nc1ccc(NC(=O)Nc2ccc(N=Nc3c(N)ccc4cc(S(=O)(=O)[O-])cc(O)c34)c(S(=O)(=O)[O-])c2)cc1S(=O)(=O)[O-] | propidium iodide | 8 µM |
| O=[N+]([O-])c1ccc2c(c1)[n+]([O-])nc1c(Br)cnn12 |  | 200 µM |
| CC(CC(F)(F)F)S(=O)(=O)c1c(C(N)=O)[nH]c2ccc(Cl)cc12 | microscopy | >10 µM |
| Fc1cccc(NC(=S)NC2CCN(Cc3ccccc3)CC2)c1 | MTT | 32 µM |
| Brc1cccc(-c2nnc3sc(CC45CC6CC(CC(C6)C4)C5)nn23)c1 | MTT | >125 µg/mL |
| S=C(NCc1ccccc1)Nc1nccs1 |  | 120 µM |
| FC(F)(F)c1cccc(NC(=S)NCc2ccco2)c1 | MTT | 44.7 µM |
| Cc1cc(C)cc(S(=O)(=O)c2c(C(=O)NC3CN(Cc4ccccc4F)C3)[nH]c3ccc(Cl)cc23)c1 | MTT | >238 µM |
| COc1ccccc1CCNC(=S)Nc1nccs1 |  | 102 µM |
| Cc1cc(C)cc(S(=O)(=O)c2c(C(=O)NS(=O)(=O)C(F)(F)F)[nH]c3ccc(Cl)cc23)c1 | MTT | 253 µM |
| CCc1c(NC)nc(Nc2ccc(C#N)cc2)nc1Oc1ccc2cc(Br)ccc2c1Br | MTT | 64.34 µM |
| O=C1Nc2ccc(Cl)cc2[C@@](C#CC2CC2)(C(F)(F)F)O1 | MTT | 0.002 µM |
| Oc1ccccc1CCNC(=S)Nc1nccs1 |  | 100 µM |
| CCCCCCCC(=O)OCOc1c2n(cc(C(=O)NCc3ccc(F)cc3F)c1=O)[C@@H]1CN(C2=O)[C@@H](C)CC[C@]12CC(OC)=NO2 | luminescence | 50 µM |
| S=C(Nc1ccccc1Cl)NC1CCN(Cc2ccccc2)CC1 | MTT | 56 µM |
| NC(=O)c1[nH]c2ccc(Cl)cc2c1S(=O)(=O)C1CCCCC1 | microscopy | >10 µM |
| CC(C)CN(C[C@@H](O)[C@H](Cc1ccccc1)NC(=O)O[C@H]1CO[C@H]2OCC[C@H]21)S(=O)(=O)c1ccc(-c2cnc(NC(=O)O[C@H]3CO[C@H]4OCC[C@H]43)[nH]2)cc1 | MTT | >100 µM |
| Cc1ccnc2c1NC(=O)c1cccnc1N2C1CC1 | MTT | >4 µM |
| Clc1ccc2nnc3ccnn3c2c1 |  | >200 µM |
| CCCC(C(=O)O)c1c(C)nc2sc3c(c2c1C(C)(C)C)CCCC3 | MTT | 131 µM |
| CC(C)Oc1cccc(CCNC(=S)Nc2nccs2)c1 |  | 16 µM |
| N#Cc1ccc(Nc2nccc(Oc3ccc4cc(C#N)ccc4c3)n2)cc1 | MTT | >68.8 µM |
| COc1ccc(-c2ccc(N=Nc3c(N)nc(=O)n(C)c3-c3ccc(OC)c(OC)c3)cc2)cc1OC | MTT | 1.63 µM |
| CC(=O)Oc1cc(C(=O)Nc2ccc(S(=O)(=O)Nc3cccc(Cl)c3F)cc2)cc(OC(C)=O)c1OC(C)=O |  | >25 µM |
| CCOC(=O)c1[nH]c2ccc(Cl)cc2c1SCCC1CC1 | microscopy | >10 µM |
| O=C(O)c1ccc2c(c1)C(=O)N(c1ccc(-c3cc(-c4ccc(N5C(=O)c6ccc(C(=O)O)cc6C5=O)cc4)nc(-c4ccccc4)n3)cc1)C2=O | propidium iodide | >20 µM |
| COC[C@@H](C)OC(=O)OCOc1c2n(cc(C(=O)NCc3ccc(F)cc3F)c1=O)[C@@H]1CN(C2=O)[C@@H](C)CC[C@]12CC(OC)=NO2 | luminescence | 50 µM |
| N#Cc1cnn2c1nnc1ccc(Cl)cc12 |  | 16.7 µM |
| Cc1cc2ccccc2cc1Oc1ccnc(Nc2ccc(C#N)cc2)n1 | MTT | >70.94 µM |
| COc1c(-c2cc(C)[nH]n2)c(O)c(S(=O)(=O)Oc2ccc(F)cc2)c2occc12 | MTT | 160 µM |
| O=[N+]([O-])c1ccc2c(c1)nnc1ccnn12 |  | 30.7 µM |
| O=C(/C=C/c1ccc(O)c(O)c1)Nc1ccc(S(=O)(=O)Nc2cccc(Cl)c2F)cc1 |  | 21 µM |
| Cn1c(N2CCOCC2)c(N=Nc2ccc(-c3ccc(F)cc3)cc2)c(N)nc1=O | MTT | 88.71 µM |
| CC1=NO[C@@]2(CC[C@H](C)N3C[C@H]2n2cc(C(=O)NCc4ccc(F)cc4F)c(=O)c(OCOC(=O)CCC(C)C)c2C3=O)C1 | luminescence | 12.2 µM |
| Cc1c(Cl)nc(Nc2ccc(C#N)cc2)nc1Oc1ccc2ccccc2c1Br | MTT | 153 µM |
| N#Cc1ccc(Nc2nc(Oc3c(Cl)cc(Cl)cc3Cl)ncc2NC(=O)C(F)(F)F)cc1 | MTT | >248 µM |
| S=C(NCc1ccco1)Nc1cccc(Cl)c1 | MTT | 60 µM |
| CNc1nc(Nc2ccc(C#N)cc2)nc(Oc2ccc3ccccc3c2Br)c1C(C)C | MTT | 64.66 µM |
| CCOC(=O)c1cnn2c1n[n+]([O-])c1cc([N+](=O)[O-])ccc12 |  | 1.3 µM |
| COC[C@@H](C)OC(=O)OCOc1c2n(cc(C(=O)NCc3ccc(F)cc3F)c1=O)[C@@H]1CN(C2=O)[C@@H](C)CC[C@]12CC(C)=NO2 | luminescence | 50 µM |
| S=C(NCCc1ccccc1Cl)Nc1nccs1 |  | 100 µM |
| Clc1ccccc1-c1nnc2sc(CC34CC5CC(CC(C5)C3)C4)nn12 | MTT | ≥12.4 µg/mL |
| CCCc1nc(-c2ccc(S(=O)(=O)N(CC(C)C)C[C@@H](O)[C@H](Cc3ccccc3)NC(=O)O[C@H]3CO[C@H]4OCC[C@H]43)cc2)co1 | MTT | >32.4 µM |
| CCc1c(NC)nc(Nc2ccc(C#N)cc2)nc1Oc1ccc2cc(C#N)ccc2c1 | MTT | >59.52 µM |
| NC(=O)c1[nH]c2ccc(Cl)cc2c1S(=O)(=O)CC1CC1 | microscopy | >10 µM |
| COc1c(C(=O)/C=C(/C)Nc2ccc(Cl)cc2)c(O)c(S(=O)(=O)OC2CCCCC2)c2occc12 | MTT | 480 µM |
| Nc1ncnc2c1ccn2[C@H]1C=C[C@@H](CO)C1 | trypan blue | >200 µM |
| NC(=O)c1[nH]c2ccc(Cl)cc2c1S(=O)(=O)C1C=CCCC1 | microscopy | >10 µM |
| CC(=O)Oc1ccc(/C=C/C(=O)Nc2ccc(S(=O)(=O)Nc3cc(C)cc(C)c3)cc2)cc1OC(C)=O |  | 13 µM |
| [O-][n+]1nc2c(-c3ccc(F)cc3)cnn2c2ccccc21 |  | >200 µM |
| Cc1ccc(NC(=S)NCc2ccco2)cc1Cl | MTT | 100 µM |
| N#Cc1ccc(Nc2nc(Oc3c(Cl)cccc3Cl)ncc2N)cc1 | MTT | 33 µM |

A second listing of 12 rows from above:

{"compound": "COc1c(C(=O)/C=C(/C)Nc2ccc(Cl)cc2)c(O)c(S(=O)(=O)OC2CCCCC2)c2occc12", "method": "MTT", "result": "480 µM"}
{"compound": "CC(CC(F)(F)F)S(=O)(=O)c1c(C(N)=O)[nH]c2ccc(Cl)cc12", "method": "microscopy", "result": ">10 µM"}
{"compound": "Cc1ccc(NC(=S)NCc2ccco2)cc1Cl", "method": "MTT", "result": "100 µM"}
{"compound": "COc1ccccc1CCNC(=S)Nc1nccs1", "result": "102 µM"}
{"compound": "Cc1csc(NC(=S)NCCc2ccccc2)n1", "result": ">360 µM"}
{"compound": "C[C@H](NP(=O)(OC[C@@H]1C=C[C@H](n2ccc3c(N)ncnc32)C1)Oc1ccccc1)C(=O)OCc1ccccc1", "method": "trypan blue", "result": "78 µM"}
{"compound": "COc1ccc(-c2ccc(N=Nc3c(N)nc(=O)n(C)c3-c3ccc(OC)c(OC)c3)cc2)cc1OC", "method": "MTT", "result": "1.63 µM"}
{"compound": "Brc1cccc(-c2nnc3sc(CC45CC6CC(CC(C6)C4)C5)nn23)c1", "method": "MTT", "result": ">125 µg/mL"}
{"compound": "Cc1cc(C)cc(S(=O)(=O)c2c(C(=O)N[C@@H]3CCN(CC(N)=O)C3)[nH]c3ccc(Cl)cc23)c1", "method": "MTT", "result": "31.02 µM"}
{"compound": "Cc1cc(C)cc(S(=O)(=O)c2c(C(=O)NC3CN(Cc4ccccc4F)C3)[nH]c3ccc(Cl)cc23)c1", "method": "MTT", "result": ">238 µM"}
{"compound": "Fc1cccc(NC(=S)NC2CCN(Cc3ccccc3)CC2)c1", "method": "MTT", "result": "32 µM"}
{"compound": "Nc1ccc2cc(S(=O)(=O)[O-])cc(O)c2c1N=Nc1ccc(NC(=O)Nc2ccc(N=Nc3c(N)ccc4cc(S(=O)(=O)[O-])cc(O)c34)c(S(=O)(=O)[O-])c2)cc1S(=O)(=O)[O-]", "method": "propidium iodide", "result": "8 µM"}

CCn: concentration that lowers growth or viability of the cells by n%. An empty or dashed field is not shown.